Results of unrelated studies side by side (data: NIAID ChemDB).

Common to all: growth or infection tests; agent: Mycobacterium smegmatis

An empty or dashed field is not shown. Neighbouring rows are from separate reports. MIC50, MIC90 and the like: level of inhibition, or share of isolates inhibited. Zones are inhibition diameters on agar.

structure | read by | tested at | measure | strain or isolate | result
Cc1c(N2C[C@@H](CN)[C@H](C(F)(F)F)C2)c(F)cn2c(=O)c(C(=O)O)cc(C3CC3)c12.Cl |  |  | MIC | ATCC114 | 0.05 µg/mL
Cc1nn(-c2ccccc2)c2c1C(c1cn(-c3ccccc3)nc1-c1ccc(F)cc1)C1=C(NC(C)(c3cc(O)c(Cl)c(O)c3)NC1=O)O2 | agar diffusion / agar | 1 mg/mL | zone | NCIM 5138 | 11.5 mm
O=C(O)Cc1ccc2[nH]c3cc(Cl)ccc3c2c1 | resazurin / visual reading / absorbance |  | MIC99 |  | >500 µg/mL
C[C@H]1c2cccc(O)c2C(O)=C2C(=O)[C@]3(O)C(O)=C(C(N)=O)C(=O)[C@@H](N(C)C)[C@@H]3[C@@H](O)[C@@H]21 |  |  | MIC | A28314 | 0.06 µg/mL
Cc1nn(-c2ccccc2)c2c1C(c1cn(-c3ccccc3)nc1-c1ccc(Cl)cc1)C1=C(NC(C)(c3cc(O)c(Cl)c(O)c3)NC1=O)O2 | agar diffusion / agar | 1 mg/mL | zone | NCIM 5138 | 6.8 mm
COc1nc2ccc(Br)cc2cc1[C@@H](c1ccccc1)[C@@](O)(CCN(C)C)c1cccc2ccccc12 | broth dilution |  | MIC80 | WILD TYPE | 0.06 µM
CC1CN(c2c(F)cc3c(=O)c(C(=O)O)cn(C4CC4)c3c2Br)CC(C)N1 |  |  | MIC99 | KD1163 (GRYA+) | 0.11 µg/mL
O=C(O)c1cn(C2CC2)c2c(Cl)c(N3CCNCC3)c(F)cc2c1=O |  |  | MIC | ATCC 19420 | 0.13 µg/mL
COc1c(N2CC(C)NC(C)C2)c(F)cc2c(=O)c(C(=O)O)cn(C3CC3)c12 |  |  | MIC99 | KD1990 (GYRA D95A) | 0.28 µg/mL
Cc1nn(-c2ccccc2)c2c1C(c1cn(-c3ccccc3)nc1-c1ccc(F)cc1)C1=C(NC(C)(c3cc(O)ccc3Cl)NC1=O)O2 | agar diffusion / agar | 0.5 mg/mL | zone | NCIM 5138 | 2.2 mm
C=CC1CN2CCC1CC2C[C@H](O)c1ccnc2ccc(OC)cc12 | broth dilution |  | MIC99 | ATCC 700084 | >200 µg/mL
Cc1c(N2C[C@@H](N)[C@@H](F)C2)c(F)cn2c(=O)c(C(=O)O)cc(C3CC3)c12.Cl |  |  | MIC | ATCC114 | 0.1 µg/mL
CC1CN(c2c(F)cc3c(=O)c(C(=O)O)cn(C4CC4)c3c2F)CC(C)N1 |  |  | MIC99 | KD1991 (GYRA D95Y) | 0.91 µg/mL
CC(C(=O)O)c1ccc2c(c1)[nH]c1ccc(C3CCCCC3)cc12 | resazurin / visual reading / absorbance |  | MIC99 |  | >500 µg/mL
O=C(O)c1cc(C(F)(F)F)cc2c(=O)nc(N3CCN(CC4CCCCC4)CC3)sc12 | resazurin |  | MIC99 | MN47 | 6.25 µg/mL
CC1CN(c2c(F)cc3c(=O)c(C(=O)O)cn(C4CC4)c3c2F)CCN1 |  |  | MIC99 | KD1987 (GYRA A91V) | 0.46 µg/mL
Cc1nn(-c2ccccc2)c2c1C(c1cn(-c3ccccc3)nc1-c1ccc(F)cc1)C1=C(NC(C)(c3cc(O)cc(O)c3)NC1=O)O2 | agar diffusion / agar | 1 mg/mL | zone | NCIM 5138 | 6.5 mm
Cc1c(N2CCc3ccccc3C2)c(F)cn2c(=O)c(C(=O)O)cc(C3CC3)c12 |  |  | MIC | ATCC114 | 50 µg/mL
Cc1nn(-c2ccccc2)c2c1C(c1cn(-c3ccccc3)nc1-c1ccc(Cl)cc1)C1=C(NC(C)(c3cc(O)ccc3Cl)NC1=O)O2 | agar diffusion / agar | 0.1 mg/mL | zone | NCIM 5138 | 1.5 mm
CNCC1CCN(c2c(F)cc3c(=O)c(C(=O)O)cn(C4CC4)c3c2F)C1 |  |  | MIC | ATCC 19420 | 0.13 µg/mL
Cc1c(N2CC3CCCNC3C2)c(F)cn2c(=O)c(C(=O)O)cc(C3CC3)c12 |  |  | MIC | ATCC114 | 0.1 µg/mL
CCN1CCN(c2c(F)cc3c(=O)c(C(=O)O)cn(C4CC4)c3c2OC)CC1 |  |  | MIC | ATCC 19420 | ≤0.03 µg/mL
O=C(O)Cc1ccc2[nH]c3ccc(F)cc3c2c1 | resazurin / visual reading / absorbance |  | MIC99 |  | >500 µg/mL
CC1CN(c2c(F)cc3c(=O)c(C(=O)O)cn(C4CC4)c3c2F)CCN1 |  |  | MIC | ATCC 19420 | 0.25 µg/mL
COc1c(N2CCNCC2)c(F)cc2c(=O)c(C(=O)O)cn(C3CC3)c12 |  |  | MIC99 | KD1998 (GYRA D95N) | 0.81 µg/mL
CC1CN(c2c(F)cc3c(=O)c(C(=O)O)cn(C4CC4)c3c2C(F)(F)F)CC(C)N1 |  |  | MIC | ATCC 19420 | 1 µg/mL
CSCC[C@H](N)[C@@H]1CCN(c2c(F)cn3c(=O)c(C(=O)O)cc(C4CC4)c3c2C)C1 |  |  | MIC | ATCC114 | 0.1 µg/mL
O=C(O)c1cn(-c2ccc(F)cc2F)c2c(F)c(N3CCNCC3)c(F)cc2c1=O |  |  | MIC | ATCC 19420 | 1 µg/mL
O=C(O)Cc1ccc2[nH]c3ccccc3c2c1 | resazurin / visual reading / absorbance |  | MIC99 |  | >500 µg/mL
C[C@H]1COC2(CCN(c3nc(=O)c4cc(C(F)(F)F)cc(C(=O)O)c4s3)CC2)O1 | resazurin |  | MIC99 | MN84 | >100 µg/mL
O=C(O)c1cn(C2CC2)c2c(C(F)(F)F)c(N3CCNCC3)c(F)cc2c1=O |  |  | MIC | ATCC 19420 | 0.5 µg/mL

Repeating the final 2 entries:

{"structure": "C[C@H]1COC2(CCN(c3nc(=O)c4cc(C(F)(F)F)cc(C(=O)O)c4s3)CC2)O1", "read by": "resazurin", "measure": "MIC99", "strain or isolate": "MN84", "result": ">100 µg/mL"}
{"structure": "O=C(O)c1cn(C2CC2)c2c(C(F)(F)F)c(N3CCNCC3)c(F)cc2c1=O", "measure": "MIC", "strain or isolate": "ATCC 19420", "result": "0.5 µg/mL"}